According to paper PMC5859253:
For at least one entry, the source does not settle the construct or the ends of the probe. For some assays here: At least one verdict was read from the data and is not stated in words by the source. For some assays here: Where a protein sequence is shown, tags need not be part of it.

Sequences of proteins named here, by UniProt entry; tags and fusion partners are left off. A change or cut given only in a name is not applied to a line headed by its entry.
UniProt P0DM78: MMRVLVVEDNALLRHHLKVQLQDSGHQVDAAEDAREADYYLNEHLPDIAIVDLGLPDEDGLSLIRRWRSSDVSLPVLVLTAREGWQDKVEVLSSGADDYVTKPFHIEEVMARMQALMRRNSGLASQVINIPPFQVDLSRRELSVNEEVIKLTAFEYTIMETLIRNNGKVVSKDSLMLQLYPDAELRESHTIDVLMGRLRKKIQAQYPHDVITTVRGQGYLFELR

Tests used:
PhoP-H6 (phosphorylated) = PhoP-H6 (phosphorylated) (UniProt P0DM78); experiment: competition with a labelled probe; conditions: phosphorylated PhoP 1 uM, unlabelled grhD1 5-100 fold excess; HilD/H-NS EMSA: 10 mM Tris-HCl pH 8, 50 mM KCl, 1 mM DTT, 0.5 mM EDTA, 5% glycerol, 10 ug/ml BSA, ~100 ng DNA, RT 20 min; recombinant protein; protein details: 6xHis; label: 5'-32P on one strand; probe letters rebuilt from the primers and the genome
MBP-HilD = molecular target: T1, MBP-HilD (UniProt E1WAC0); experiment: EMSA; conditions: shift at these concentrations; HilD/H-NS EMSA: 10 mM Tris-HCl pH 8, 50 mM KCl, 1 mM DTT, 0.5 mM EDTA, 5% glycerol, 10 ug/ml BSA, ~100 ng DNA, RT 20 min; recombinant protein; protein details: N-term MBP; probe letters rebuilt from the primers and the genome
T1 sequence (looked up, limits assumed): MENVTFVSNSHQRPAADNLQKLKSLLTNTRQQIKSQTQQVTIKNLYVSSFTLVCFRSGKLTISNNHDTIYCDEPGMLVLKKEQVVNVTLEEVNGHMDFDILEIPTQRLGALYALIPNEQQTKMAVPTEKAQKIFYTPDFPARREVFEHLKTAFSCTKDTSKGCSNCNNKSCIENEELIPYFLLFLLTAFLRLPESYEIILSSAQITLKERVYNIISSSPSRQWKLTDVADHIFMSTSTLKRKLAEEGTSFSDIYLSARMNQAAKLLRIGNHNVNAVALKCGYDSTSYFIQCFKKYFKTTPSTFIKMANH

ATCCAGAATCAGCTCCAGATAGTATTTCAAATAAACAGCCCGCACTATAGCGCATACTTTTTTCAGACACAGTTTACAGGGATACTCTCTTTATATCCACGCGCACGGTTGCCTTAATCATGTCTTCCGCGATAACACAGTTTGTCAACCTATTCTATATAACCAAGCTTAAACAGAACCTTACCAGCCAGTGATATCAGCTCAGGACTTTCAGGATAAAAACGCAGTAACGGCAAAAATACCGCCTCACCGATAAT (double strand) [grhD1 promoter (PhoP EMSA)]
binding result (PhoP-H6 (phosphorylated)): binds

GACAAGCTTTTCTGAGCGTAGCAGGGAGCCGTCCATGTTGAGTATGAAATCATCAAAGACGAATTTTTTATTCGATACAGGAACAGGATTAAAATGTGGCATGATAATAGTGTATTCTCTTACAGGGTGAAAAGTTATAATAACTAATACAAGTCGTTAGGATAGAATCTACTGTTTCAGTAATTCTGCTGTTAGTACTAACGGTCAGGTTGAGCTTTTATTATGAGCTTAATGTCATATTCTACGGGCTCGGGTTTATATGTTTTTAACATTTGATTATTTAGCTTATGCCTGTGCTTTAAATAACTGACATGTTGGTAATAATATTGTTATAACTAACTGTGATTATCGAATGGACGCTGCCGTATATCCTGGTGCAGAGAGAGTCAGCGCCGGGCATCTAAATATTTACATATTTAACTTGGCCTCATTGCAATAGAGATTAGTTTTGTAGCTATCTTACTGCATTTTTTTGGGGTGTAAATGCTGCTTATTATATCTTCATGGTTAATGGTCTGATAATTACACCATCAGAACCATTTTTCTCGAAGATTTCCACTAAATGACCATTCGTTGAAAGTTTAAGAGTGTAATTTGTCTTAGGTTCCAAAATATAAATGAAAGACTGTTTTTAATGGTGCGCTTATTTTTATATTTTTTTGCAAAATAATGATATCGTCTTTTCTTTACTCCCTTCAGTTATAGCGTCAAAAAGGCAGGAGGGTTATGAGCAGTATCATCCTCAGGCTGGCTCCAGGCATTATATCGATATCAGGAGGAAGAGAGGAGGTATGCCTGGCAGAAAGCTAACAAGCGTGACTGTTTCGGTATAAACCGTTCAGGCAAATAGTTCTCAGAGGGATCCGAT (double strand) [hilA regulatory region]
binding result (MBP-HilD): binds
